# System: RK-0404678-adapted (P9) DENV2 16681 virus
# Conditions: nine passages in Vero cells, 50 μM RK-0404678
smiles,measurement,value
"CC(=O)Oc1ccc2oc(=O)sc2c1 [RK-0404678, (2-Oxo-1,3-benzoxathiol-5-yl) acetate]",emergence of resistance after serial passage,did not gain obvious resistance
